Results published in US20100204237A1, “Hydroxypyrimidinone derivatives having inhibitory activity against HIV integrase” (priority 2003, published 2010).

Assays:
HIV (HTLV-IIIB strain) = assay: inhibitory activities against HIV cell proliferation, MT-4 cells, MTT (Experimental Example 2); assay type: cell-based; details: concentration at which 50% of cytopathy caused by viruses was inhibited, 4 days
Procedure: The inhibitory activities against HIV cell proliferation were determined by the assay method described below. • (1) HIV (HTLV-IIIB strain) persistence infection human T-cell strain Molt-4 clone 8 was cultured on RPMI-1640 medium supplemented with 10% fetal bovine serum, and the supernatant was measured for viral titer after filtration, and stored at −80° C. On the other hand, each anti-HIV active agent was diluted in the above culture medium to a predetermined concentration, and each well of a 96-well microplate was added with 50 μl of the resultant active agent solution. Then, 100 μl (3.5×10^4 cells) each of MT-4 cell suspension was poured into each well, followed by each 50 μl (60 pfu (plaque forming unit)) of the HIV-containing supernatant diluted with the above culture medium. • (2) After incubating for 4 days in a carbon dioxide incubator at 37° C., every well was added with 30 μl of 3-(4,5-dimethylthiazole-2-yl)-2,5-diphenyltetrazolium bromide (MTT) 5 mg/ml), PBS, and incubated for another 1 hour. At this time, since living cells reduce MTT to cause precipitation of formazane, 150 μl of cell supernatant was removed from each well, and instead 150 μl of lysis solution (isopropanol supplemented with 10% Triton X-100 and 0.4% (v/v) HCl) was added, to make formazane eluate by shaking with a plate mixer. […] The concentration of Compound at which 50% of cytopathy caused by viruses was inhibited was defined as EC50.

HIV integrase = HIV integrase (Human immunodeficiency virus type 1 group M subtype B, UniProt P04585); assay: inhibitory activities against integrase (Experimental Example 1); assay type: biochemical; details: integrase inhibition, OD405 nm plate assay
Procedure: The inhibitory activities against integrase were determined by the assay described below.
A substrate DNA, solution (2 pmol/μl) and a target DNA solution (5 pmol/μl) were prepared in the manner as described in Experimental example 1 of WO 2004/024693. Before using the DNA solutions, complementary chains were annealed by slowly cooling after boiling. Substrate DNA and target DNA had sequences as described in that Experimental example.
Streptavidin, obtained from Vector Laboratories, was dissolved in 0.1 M carbonate buffer (composition: 90 mM Na2CO3, 10 mM NaHCO3) at concentration of 40 μg/ml. After coating each well of immunoplates (obtained from NUNC) with 50 μl of the above solution at 4° C. over night, each well was washed twice with PBS (composition: 13.7 mM NaCl, 0.27 mM KCl, 0.43 mM Na2HPO4, 0.14 mM KH2PO4) and blocked with 300 μl of 1% skim milk in PBS for 30 min. Additionally, each well was washed twice with PBS and added 50 μl of substrate DNA solution (2 pmol/μl). The immunoplates were kept at room temperature for 30 min while shaking. Then, each well was washed twice with PBS and once with H2O.
Subsequently, in the each well prepared above were added 51 μl of the reaction solution prepared from 12 μl of the buffer (composition: 150 mM MOPS (pH 7.2), 75 mM MnCl2, 50 mM 2-mercaptoethanol, 25% glycerol, 500 μg/ml bovine serum albumin-fraction V), and 39 μl of the distilled water. Then 9 μl of an integrase solution (30 pmol) was added and mixed well. In the well of negative control (NC) was added 9 μl of the integrase dilution buffer (composition: 20 mM MOPS (pH7.2), 400 mM potassium glutamate, 1 mM EDTA, 0.1% NP-40, 20% glycerol, 1 mM DTT, 4M urea), and mixed well using a plate mixer.
The plates were incubated at 30° C. for 60 minutes. The reaction solution was removed and washed three times with 250 μl of washing buffer (composition: 150 mM MOPS (pH7.2), 50 mM 2-mercaptoethanol, 25% glycerol, 500 μg/ml bovine serum albumin-fraction V).
Then each well was added with 53 μl of reaction solution prepared from 12 μl of buffer (composition: 150 mM MOPS (pH7.2), 75 mM MgCl2, 50 mM 2-mercaptoethanol, 25% glycerol, 500 μg/ml bovine serum albumin-fraction V) and 41 μl of distilled water. Further, each well was added with 6 μl of DMSO solution of a compound to be tested, and the well of positive control (PC) was added with 6 μl of DMSO, and mixed well by a plate mixer. After incubating the plate for 30 minutes at 30° C., was added 1 μl of target DNA (5 pmol/μl), and mixed well by a plate mixer.
After incubation for 10 minutes at 30° C., each plate was washed twice with PBS after removal of the reaction solution. Then, 100 μl of ×2000 diluted solution of anti-digoxigenin antibody labeled with alkaline phosphatase (sheep Fab fragment: Boehringer) was added, allowed to bind for 1 hour at 30° C., and washed twice with PBS containing 0.05% Tween20 and once with PBS in this sequence. Next, 150 μl of the Alkaline phosphatase coloring buffer (composition: 10 mM p-Nitrophenylphosphate (obtained from Vector Laboratories), 5 mM MgCl2, 100 mM NaCl, 100 mM Tris-HCl (pH 9.5)) was added and allowed to react for 2 hours at 30° C. Then the reaction was terminated by the addition of 50 μl of 1N NaOH solution. The optical density at 405 nm (OD405 nm) of each well was measured and the inhibition rate (IC50) was determined by the following expression.
The inhibition rate (%)=100[1−{(C abs.−NC abs.)/(PC abs.−NC abs.)}]
C abs.; the OD of the well of the compound
NC abs.: the OD of the negative control (NC)
PC abs.: the OD of the positive control (PC)

SMILES | Experimental example 2 (EC50, ng/ml) (HIV (HTLV-IIIB strain)) [ng/mL] | Experimental example 1 (IC50, ng/ml) (HIV integrase) [ng/mL] | Experimental example 2 (EC50, ng/ml) (HIV (HTLV-IIIB strain); tested form: Li salt) [ng/mL] | Experimental example 1 (IC50, ng/ml) (HIV integrase; tested form: Li salt) [ng/mL]
CC(C)(NC(=O)c1ccccn1)c1nc(-c2ncc(Cc3ccc(F)cc3)s2)c(O)c(=O)[nH]1 | 12 | 4.5 |  | 
CN1C(=O)Cn2c(nc(-c3ncc(Cc4ccc(F)cc4)s3)c(O)c2=O)C1(C)C | 8.7 | 2 |  | 
Cn1c(Cc2ccc(Br)cc2)nc(-c2ncc(Cc3ccc(F)cc3)o2)c(O)c1=O | 185 | 17 |  | 
CC(=O)NC(C)(C)c1nc(-c2ncc(Cc3ccc(F)cc3)s2)c(O)c(=O)[nH]1 | 4 | 4 |  | 
CCN1Cn2c(nc(C(=O)NCc3ccc(F)cc3)c(O)c2=O)C1(C)C | 10 | 4.1 |  | 
O=C1CCCN1c1ccc(-c2nc(-c3ncc(Cc4ccc(F)cc4)s3)c(O)c(=O)[nH]2)cc1 | 30 | 13 |  | 
COCC(=O)NC(C)(C)c1nc(-c2ncc(Cc3ccc(F)cc3)s2)c(O)c(=O)[nH]1 | 8.2 | 4.1 |  | 
Cn1c(C(C)(C)NS(C)(=O)=O)nc(-c2ncc(Cc3ccc(F)cc3)s2)c(O)c1=O | 6 | 5.1 |  | 
CC(=O)N1CCC[C@H]1c1nc(-c2ncc(Cc3ccc(F)cc3)o2)c(O)c(=O)n1C |  |  | 1.5 | 16
CC1(C)c2nc(C(=O)NCc3ccc(F)cc3)c(O)c(=O)n2CN1Cc1ccccc1 | 7.1 | 1.8 |  | 
CC(=O)NC(C)(C)c1nc(-c2ncc(Cc3ccc(F)cc3)o2)c(O)c(=O)n1C | 8.8 | 24 |  | 
CN1Cn2c(nc(C(=O)NCc3ccc(F)cc3)c(O)c2=O)C1(C)C | 7.6 | 4.5 |  | 
COCC(=O)Nc1ccc(-c2nc(-c3ncc(Cc4ccc(F)cc4)s3)c(O)c(=O)[nH]2)cc1 | 27 | 7.2 |  | 
Cn1c([C@@H]2CCCN2S(C)(=O)=O)nc(-c2ncc(Cc3ccc(F)cc3)o2)c(O)c1=O | 5 | 11 |  | 
CN(C)C(=O)C(=O)NC(C)(C)c1nc(-c2ncc(Cc3ccc(F)cc3)s2)c(O)c(=O)n1C | 7.6 | 5 |  | 
